Results reported in US5629198A (priority 1991, dated 1997).

Experiments:
MOLT-4/HTLV-IIIB = assay: Killing effect on cells persistently infected with HIV (Test Example 1), trypan blue; assay type: cell-based, human; settings: 3 days
Experimental: (§1) The cell killing effects of test substances were determined using a cell strain persistently infected with HIV in MOLT-4 cells and MOLT-4 cells.
(§2) MOLT4/HTLV-IIIB, MOLT4/ARV and MOLT4 cell strains were separately inoculated in proportions of 4×10^4 cells/well (200 μl) on a 96-well plate, and the above test substances in various concentrations were separately added in an amount of 20 μl thereto. After each cell sample was cultured for 3 days at 37° C. in the presence of 5% CO2, the culture was diluted to a triple or quadruple amount, thereby counting the number of living cells by a trypan blue dye exclusion test. As a control, 20 μl of PBS were added in place of each test substance. Each numerical value is expressed in terms of the percentage of living cells to the control.

MOLT-4/ARV = assay: as above; assay type: cell-based, human; settings: 3 days
Experimental: as §1, §2

HTLV-IIIB in MT-4 cells = assay: Anti-HIV effect: TCID50 of infectious virus from infected MT-4 cells (Test Example 5); assay type: cell-based, HIV (HTLV-IIIB); settings: 4 days, positive control 3.31 × 10^7
Experimental: The inhibitory effects of test substances on the cytopathy and HIV antigen production of MT-4 cells due to HIV infection were determined.
MT-4 cells belonging to a cell strain persistently infected with HTLV-1 are high in sensitivity to HIV and promptly die out when infected. MT-4/HIV cells which are MT-4 cells infected with HIV are used for screening anti-HIV agents making good use of this nature.
After MT-4 cells (1.2×10^7 cells) were infected for 2 hours at 37° C. with 3.2 ml of HTLV-IIIB (10^7 TCID50 /ml) obtained from a culture supernatant of a cell strain persistently infected with HIV, i.e., […], the cells were washed. After the cells were then inoculated on a 48-well microplate in a proportion of 1×10^5 cells/well, the test substances were separately added in an amount of 100 μl. As a negative control, there was used a culture obtained by adding 3.2 ml of a culture supernatant after culturing MOLT-4 cells for 3 days to MT-4 cells (4.7×10^6 cells), conducting culture for 2 hours at 37° C., washing the cells in the same manner as described above, inoculating them in a proportion of 1×10^5 cells/well and adding PBS in place of the test substances.
Upon elapsed time of 4 days after the culture, each supernatant was assayed on a P24gag protein based on an EIA kit produced by Abbott Labs, and the number of living cells was counted by the Trypan Blue dye exclusion method, and moreover, TCID50 indicative of an actual quantity of infectious virus was calculated.

MOLT-4 = assay: Killing effect on uninfected cells (Test Example 1), trypan blue; assay type: cell-based, human; settings: 100 μg/ml, 3 days
Experimental: as §1, §2

[1] = test system: human peripheral blood lymphocytes (PBL), uninfected system; assay: Cytotoxic effect on uninfected PBL (Test Example 6); assay type: cell-based; settings: sixth day, 8640 min
Experimental: (§3) The anti-HIV effects of test substances on human peripheral blood lymphocytes infected with HIV were determined.
(§4) After blood is collected from a vein by a syringe whose interior wall is wetted with heparin, PBL is separated from the blood with Ficol. After this PBL cell is inoculated on a 25-cm^2 culture flask containing 10 ml of a RPMI 1640 medium (including IL-2) added with 20% of a fetal bovine serum so as to contain 7×10^5 cells/ml therein, 40 μl (1 mg/ml) of PHA are added to culture the cells for 4 days. After 4 days, the cells are washed. Thereafter, they are used in assaying the anti-HIV effects of the test substances as PBL cells in an HIV-uninfected system for part of them, and in an HIV-infected system for the remainder. The PBL cells are inoculated on a 25-cm^2 culture flask added with 5 ml of the above medium so as to contain 2×10^6 cells therein. Then, 500 μl of S-HSA-Hemin or S-HSA-EDC-Hemin are given in various concentrations thereto so as to conduct culture at 37° C. in the presence of 5% CO2, thereby assaying the cytotoxic effects of the test substances in the various concentrations. With respect to the infected system on the other hand, 8 ml of HTLV-IIIB (10^7 TCID50 /ml) obtained from a culture supernatant of an HIV-persistently infected strain, MOLT-4/HTLV-IIIB are inserted in the PBL cells to culture them for 2 hours. Thereafter, the cells are washed, and then inoculated on a 25-cm^2 culture flask added with 5 ml of the above medium so as to contain 2×10^6 cells therein. In the same manner as described above, S-HSA-Hemin or S-HSA-EDC-Hemin is given in the various concentrations thereto, thereby conducting culture at 37° C. in the presence of 5% CO2. After 3, 6 and 9 days from the beginning of the culture, the number of cells are counted to calculate the quantity of the P24 protein produced and TCID50.

[2] = test system: HTLV-IIIB in human peripheral blood lymphocytes (PBL); assay: P24 production in HIV-infected PBL (Test Example 6); assay type: cell-based, HIV (HTLV-IIIB); settings: sixth day, 8640 min
Experimental: as §3, §4

“SHSA: succinylated human serum albumin [reference compound]” was tested, and the “living cells (percentage to the control)” value (MOLT-4/HTLV-IIIB; 100 μg/ml) was 100%, the “living cells (percentage to the control)” value (MOLT-4/ARV; 200 μg/ml) was 100% and the “TCID50 (quantity of infectious virus)” value (HTLV-IIIB in MT-4 cells; 100 μg/ml) was 1.64 × 10^5 TCID50 /ml. For the same substance, the “living cells (percentage to the control)” value (MOLT-4) was 100%.
“S--HSA-Hemin: complex of succinylated human serum albumin and hemin” was tested, and the “TCID50 (quantity of infectious virus)” value (HTLV-IIIB in MT-4 cells; 90.8 μg/ml) was 4.06 × 10^3 TCID50 /ml, the “Living cells in uninfected system” value ([1]; 45.4 μg/ml) was 113% and the “Living cells in uninfected system” value ([1]; 90.8 μg/ml) was 88%. For the same substance, the “Living cells in uninfected system” value ([1]; 181.6 μg/ml) was 66%, the “P24 production in infected system” value ([2]; 45.4 μg/ml) was 4.8% and the “P24 production in infected system” value ([2]; 90.8 μg/ml) was 3.1%. The “P24 production in infected system” value ([2]; 181.6 μg/ml) was 1.7%.
“S--HSA--PP: complex of succinylated human serum albumin and PP (protoporphyrin)” was tested, and the “living cells (percentage to the control)” value (MOLT-4/HTLV-IIIB; 14.2 μg/ml) was 69%, the “living cells (percentage to the control)” value (MOLT-4/HTLV-IIIB; 28.5 μg/ml) was 25% and the “living cells (percentage to the control)” value (MOLT-4/HTLV-IIIB; 56.9 μg/ml) was 8%. For the same substance, the “living cells (percentage to the control)” value (MOLT-4/HTLV-IIIB; 1l3.8 μg/ml) was 0%, the “living cells (percentage to the control)” value (MOLT-4/ARV; 14.2 μg/ml) was 56% and the “living cells (percentage to the control)” value (MOLT-4/ARV; 28.5 μg/ml) was 26%. The “living cells (percentage to the control)” value (MOLT-4/ARV; 56.9 μg/ml) was 10% and the “living cells (percentage to the control)” value (MOLT-4/ARV; 1l3.8 μg/ml) was 0%.
